Source: US20160304570A1, “Potent and selective inhibitors of nav1.3 and nav1.7” (published 2016)

molecular target: human voltage-gated sodium channel Nav1.5 (human), Q14524; assay: cell-based or functional assay

Row | Binder | IWQ Use Nav1.5 IC50 (IonWorks Quattro electrophysiology) [µM] | Nav1.5 Use IC50 (PatchXpress electrophysiology) [µM] | IWQ Use Nav1.5 (µM); IC50 of peak inward current, IonWorks Quattro [µM] | IWQ Use Nav1.5 (µM): IC50 of peak inward current, IonWorks Quattro [µM] | IWQ Use Nav1.5 (µM) (IC50, IonWorks Quattro population patch clamp) | IWQ Use Nav1.5 [µM]
1 | DCLGFMRKCIPDNDKCCRPNLVCSRTHQWCKYVF (modifications not checked) [[Gln28]GpTx-1(1-34)] | 22.7 | > 10 |  |  |  | 
2 | DCLGFIRKCIPDNDKCCRPNLVCSRTHKWCKYVF (modifications not checked) [[Ile6]GpTx-1(1-34)] |  |  | 8.63 |  |  | 
3 | DCLGFGRKCIPDNDKCCRPNLVCSRTHKWCKYVF (modifications not checked) [[Gly6]GpTx-1(1-34)] |  |  | 8.2 |  |  | 
4 | DCLGAMRKCIPDNDKCCRPNLVCSRTHYWCKYVF (modifications not checked) [[Ala5;Tyr28]GpTx-1(1-34)] | 42 |  |  |  |  | 
5 | DCLGFARKCIPDNDKCCRPNLVCSRTHKWCKYVF (modifications not checked) [[Ala6]GpTx-1(1-34)] |  |  | 17.4 |  |  | 
6 | DCLGFPRKCIPDNDKCCRPNLVCSRTHKWCKYVF (modifications not checked) [[Pro6]GpTx-1(1-34)] |  | 10 | 10 |  |  | 
7 | DCLGFMRKCIPDEDKCCRPNLVCSRTHKWCKYVF (modifications not checked) [[Glu13]GpTx-1(1-34)] |  |  |  | 9.38 |  | 
8 | DCLGFMRECIPDNDKCCRPNLVCSRTHKWCKYVF (modifications not checked) [[Glu8]GpTx-1(1-34)] |  |  |  |  | 24.9 | 
9 | DCLGFYRKCIPDNDKCCRPNLVCSRTHKWCKYVF (modifications not checked) [[Tyr6]GpTx-1(1-34)] |  |  | 6.38 |  |  | 
10 | DCLGFMRRCIPDNDKCCRPNLVCSRTHKWCKYVF (modifications not checked) [[Arg8]GpTx-1(1-34)] |  |  |  |  | 13.8 | 
11 | DCLGFMRKCIPDNDACCRPNLVCSRTHKWCKYVF (modifications not checked) [[Ala15]GpTx-1(1-34)] |  |  |  | 9.64 |  | 
12 | DCLGFQRKCIPDNDKCCRPNLVCSRTHKWCKYVF (modifications not checked) [[Gln6]GpTx-1(1-34)] |  |  | 7.57 |  |  | 
13 | DCLGFVRKCIPDNDKCCRPNLVCSRTHKWCKYVF (modifications not checked) [[Val6]GpTx-1(1-34)] |  |  |  |  |  | 9.23
14 | DCLGFMRKCIPDADKCCRPNLVCSRTHKWCKYVF (modifications not checked) [[Ala13]GpTx-1(1-34)] |  |  |  | 8.15 |  | 
15 | DCLGFRRKCIPDNDKCCRPNLVCSRTHKWCKYVF (modifications not checked) [[Arg6]GpTx-1(1-34)] |  |  | 17.6 |  |  | 
16 | DCLGFNRKCIPDNDKCCRPNLVCSRTHKWCKYVF (modifications not checked) [[Asn6]GpTx-1(1-34)] |  |  | 10.3 |  |  | 
17 | DCLGFMRKCIPDKDKCCRPNLVCSRTHKWCKYVF (modifications not checked) [[Lys13]GpTx-1(1-34)] |  |  |  | 9.72 |  | 

molecular target: human voltage-gated sodium channel Nav1.7 (human), Q15858; assay: cell-based or functional assay

Row | Binder | IWQ Use Nav1.7 IC50 (IonWorks Quattro electrophysiology) [µM] | Nav1.7 Use IC50 (PatchXpress electrophysiology) [µM] | IWQ Use Nav1.7 (µM); IC50 of peak inward current, IonWorks Quattro [µM] | IWQ Use Nav1.7 (µM): IC50 of peak inward current, IonWorks Quattro [µM] | IWQ Use Nav1.7 (µM) (IC50, IonWorks Quattro population patch clamp) | IWQ Use Nav1.7 [µM]
18 | DCLGFMRKCIPDNDKCCRPNLVCSRTHQWCKYVF (modifications not checked) [[Gln28]GpTx-1(1-34)] | 0.19 | 0.004 |  |  |  | 
19 | DCLGFIRKCIPDNDKCCRPNLVCSRTHKWCKYVF (modifications not checked) [[Ile6]GpTx-1(1-34)] |  |  | 0.07 |  |  | 
20 | DCLGFGRKCIPDNDKCCRPNLVCSRTHKWCKYVF (modifications not checked) [[Gly6]GpTx-1(1-34)] |  |  | 0.18 |  |  | 
21 | DCLGAMRKCIPDNDKCCRPNLVCSRTHYWCKYVF (modifications not checked) [[Ala5;Tyr28]GpTx-1(1-34)] | 0.79 |  |  |  |  | 
22 | DCLGFARKCIPDNDKCCRPNLVCSRTHKWCKYVF (modifications not checked) [[Ala6]GpTx-1(1-34)] |  |  | 0.51 |  |  | 
23 | DCLGFPRKCIPDNDKCCRPNLVCSRTHKWCKYVF (modifications not checked) [[Pro6]GpTx-1(1-34)] |  | 0.042 | 0.79 |  |  | 
24 | DCLGFMRKCIPDEDKCCRPNLVCSRTHKWCKYVF (modifications not checked) [[Glu13]GpTx-1(1-34)] |  |  |  | 0.26 |  | 
25 | DCLGFMRECIPDNDKCCRPNLVCSRTHKWCKYVF (modifications not checked) [[Glu8]GpTx-1(1-34)] |  |  |  |  | 1.7 | 
26 | DCLGFYRKCIPDNDKCCRPNLVCSRTHKWCKYVF (modifications not checked) [[Tyr6]GpTx-1(1-34)] |  | 0.069 | 0.97 |  |  | 
27 | DCLGFMRRCIPDNDKCCRPNLVCSRTHKWCKYVF (modifications not checked) [[Arg8]GpTx-1(1-34)] |  |  |  |  | 0.14 | 
28 | DCLGFMRKCIPDNDACCRPNLVCSRTHKWCKYVF (modifications not checked) [[Ala15]GpTx-1(1-34)] |  |  |  | 0.22 |  | 
29 | DCLGFQRKCIPDNDKCCRPNLVCSRTHKWCKYVF (modifications not checked) [[Gln6]GpTx-1(1-34)] |  |  | 8.62 |  |  | 
30 | DCLGFVRKCIPDNDKCCRPNLVCSRTHKWCKYVF (modifications not checked) [[Val6]GpTx-1(1-34)] |  |  |  |  |  | 0.09
31 | DCLGFMRKCIPDADKCCRPNLVCSRTHKWCKYVF (modifications not checked) [[Ala13]GpTx-1(1-34)] |  |  |  | 0.17 |  | 
32 | DCLGFRRKCIPDNDKCCRPNLVCSRTHKWCKYVF (modifications not checked) [[Arg6]GpTx-1(1-34)] |  |  | 6.98 |  |  | 
33 | DCLGFNRKCIPDNDKCCRPNLVCSRTHKWCKYVF (modifications not checked) [[Asn6]GpTx-1(1-34)] |  |  | 6.89 |  |  | 
34 | DCLGFMRKCIPDKDKCCRPNLVCSRTHKWCKYVF (modifications not checked) [[Lys13]GpTx-1(1-34)] |  |  |  | 0.21 |  | 

molecular target: human voltage-gated sodium channel Nav1.3 (human), Q9NY46; assay: cell-based or functional assay

Row | Binder | IWQ Use Nav1.3 IC50 (IonWorks Quattro electrophysiology) [µM] | IWQ Use Nav1.3 (µM); IC50 of peak inward current, IonWorks Quattro [µM] | IWQ Use Nav1.3 (µM): IC50 of peak inward current, IonWorks Quattro [µM] | IWQ Use Nav1.3 (µM) (IC50, IonWorks Quattro population patch clamp) | IWQ Use Nav1.3 [µM]
35 | DCLGFMRKCIPDNDKCCRPNLVCSRTHQWCKYVF (modifications not checked) [[Gln28]GpTx-1(1-34)] | 0.27 |  |  |  | 
36 | DCLGFIRKCIPDNDKCCRPNLVCSRTHKWCKYVF (modifications not checked) [[Ile6]GpTx-1(1-34)] |  | 0.06 |  |  | 
37 | DCLGFGRKCIPDNDKCCRPNLVCSRTHKWCKYVF (modifications not checked) [[Gly6]GpTx-1(1-34)] |  | 0.14 |  |  | 
38 | DCLGAMRKCIPDNDKCCRPNLVCSRTHYWCKYVF (modifications not checked) [[Ala5;Tyr28]GpTx-1(1-34)] | 1.4 |  |  |  | 
39 | DCLGFARKCIPDNDKCCRPNLVCSRTHKWCKYVF (modifications not checked) [[Ala6]GpTx-1(1-34)] |  | 0.21 |  |  | 
40 | DCLGFPRKCIPDNDKCCRPNLVCSRTHKWCKYVF (modifications not checked) [[Pro6]GpTx-1(1-34)] |  | 0.76 |  |  | 
41 | DCLGFMRKCIPDEDKCCRPNLVCSRTHKWCKYVF (modifications not checked) [[Glu13]GpTx-1(1-34)] |  |  | 0.22 |  | 
42 | DCLGFMRECIPDNDKCCRPNLVCSRTHKWCKYVF (modifications not checked) [[Glu8]GpTx-1(1-34)] |  |  |  | 1.36 | 
43 | DCLGFYRKCIPDNDKCCRPNLVCSRTHKWCKYVF (modifications not checked) [[Tyr6]GpTx-1(1-34)] |  | 0.52 |  |  | 
44 | DCLGFMRRCIPDNDKCCRPNLVCSRTHKWCKYVF (modifications not checked) [[Arg8]GpTx-1(1-34)] |  |  |  | 0.12 | 
45 | DCLGFMRKCIPDNDACCRPNLVCSRTHKWCKYVF (modifications not checked) [[Ala15]GpTx-1(1-34)] |  |  | 0.19 |  | 
46 | DCLGFQRKCIPDNDKCCRPNLVCSRTHKWCKYVF (modifications not checked) [[Gln6]GpTx-1(1-34)] |  | 5.96 |  |  | 
47 | DCLGFVRKCIPDNDKCCRPNLVCSRTHKWCKYVF (modifications not checked) [[Val6]GpTx-1(1-34)] |  |  |  |  | 0.08
48 | DCLGFMRKCIPDADKCCRPNLVCSRTHKWCKYVF (modifications not checked) [[Ala13]GpTx-1(1-34)] |  |  | 0.16 |  | 
49 | DCLGFRRKCIPDNDKCCRPNLVCSRTHKWCKYVF (modifications not checked) [[Arg6]GpTx-1(1-34)] |  | 5.9 |  |  | 
50 | DCLGFNRKCIPDNDKCCRPNLVCSRTHKWCKYVF (modifications not checked) [[Asn6]GpTx-1(1-34)] |  | 6.28 |  |  | 
51 | DCLGFMRKCIPDKDKCCRPNLVCSRTHKWCKYVF (modifications not checked) [[Lys13]GpTx-1(1-34)] |  |  | 0.13 |  | 
